Laboratory results: PubChem BioAssay AID624099 (ICCB-Longwood, 2012)

Aim: 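Knock-downs relieving repression by E2 of an HPV18 LCR luciferase reporter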 (primary screen)
Cells: human C33A cervical carcinoma cells (HPV-negative) stably expressing BPV1 E2 and an HPV18 LCR luciferase reporter
Reagents: siRNA pool against human genes, 40 nM
Time to read-out: 72 h
Measurement: 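HPV18 LCR reporter light per well, converted to plate-wise z-scores that exclude control wells, and averaged over triplicate plates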
Direction: mean z-score and z-score: higher = stronger reporter signal, weaker E2 silencing
Rule for the call: 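Mean z ≥ 2 together with z ≥ 2 in two or more of the three replicates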
The deposit covers about 21,000 reagents; this is a part drawn at random. 497 of them (2.4%) were called active. 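Higher z means weaker E2 silencing; only reporter increases were scored, and knock-downs that hurt cell survival may mask genuine repressor factors.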 Reagents against one gene are numbered here.

Gene | pool no. | mean z-score | z-score, replicate A | z-score, replicate B | z-score, replicate C | call
CAD | 1 | -0.06 | 0.02 | -0.5 | 0.31 | inactive
TSEN15 | 1 | -0.44 | -0.74 | -0.24 | -0.34 | inactive
STAM | 1 | -0.28 | -0.21 | -0.4 | -0.23 | inactive
DCAF8 | 1 | 0.22 | -0.38 | 0.48 | 0.55 | inactive
GCSIR | 1 | 3.48 | 3.26 | 3.55 | 3.64 | active
CACTIN | 1 | -0.19 | -0.11 | -0.48 | 0.02 | inactive
RASAL2 | 1 | 0.24 | 0.1 | 0.47 | 0.16 | inactive
MARCHF2 | 1 | 0.34 | 0.72 | -0.09 | 0.39 | inactive
FBXO36 | 1 | -0.73 | -0.84 | -0.46 | -0.89 | inactive
CFAP54 | 1 | -0.14 | -0.31 | 0.07 | -0.17 | inactive
CFAP54 | 2 | -1.26 | -0.93 | -1.73 | -1.13 | inactive
APEX1 | 1 | -0.84 | -1.05 | -0.57 | -0.88 | inactive
LOC388142 (retired record) | 1 | 1.88 | 1.55 | 1.82 | 2.26 | inactive
TPT1P4 | 1 | -0.21 | -0.06 | -0.32 | -0.24 | inactive
CNNM1 | 1 | 0.78 | 0.74 | 0.89 | 0.71 | inactive
HGH1 | 1 | -1.13 | -0.69 | -1.23 | -1.47 | inactive
LOC102724434 | 1 | 0.55 | 0.82 | 0.52 | 0.31 | inactive
NLE1 | 1 | 0.41 | 0.11 | 0.51 | 0.6 | inactive
ENTREP3 | 1 | 0.23 | 0.23 | 0.07 | 0.37 | inactive
RTL4 | 1 | -0.35 | -0.4 | -0.37 | -0.27 | inactive
TAS2R46 | 1 | -1.22 | -1.27 | -1.17 | -1.21 | inactive
FAM227B | 1 | 0.5 | 0.65 | 0.23 | 0.63 | inactive
LOC339003 (retired record) | 1 | -0.04 | -0.08 | 0.07 | -0.1 | inactive
MBNL1 | 1 | -0.86 | -0.99 | -0.85 | -0.75 | inactive
CXCR6 | 1 | 1.27 | 1.3 | 1.52 | 0.99 | inactive
KRAS | 1 | -0.57 | -0.64 | -0.68 | -0.37 | inactive
SLC48A1 | 1 | 1.97 | 1.62 | 2.1 | 2.19 | inactive
E2F6 | 1 | 0.09 | -0.03 | 0.17 | 0.13 | inactive
DLX3 | 1 | -0.6 | -0.67 | -0.56 | -0.56 | inactive
COL23A1 | 1 | -0.68 | -0.41 | -0.8 | -0.83 | inactive
FAM110A | 1 | 0.76 | 0.82 | 0.53 | 0.93 | inactive
NTSR1 | 1 | -1.01 | -0.63 | -0.84 | -1.56 | inactive
UBE2V1 | 1 | 0.07 | 0.01 | 0.11 | 0.08 | inactive
CFHR3 | 1 | 0.32 | 0.25 | 0.43 | 0.29 | inactive
TMEM236 | 1 | 1.09 | 1.13 | 1.08 | 1.06 | inactive
POLR3GL | 1 | 0.77 | 0.65 | 0.72 | 0.95 | inactive
CLEC4F | 1 | -0.59 | -0.54 | -0.5 | -0.74 | inactive
LYG1 | 1 | -0.76 | -0.87 | -0.65 | – | inactive
RSRC1 | 1 | -0.27 | -0.26 | -0.44 | -0.1 | inactive
BUB3 | 1 | 0.94 | 0.59 | 1.33 | 0.9 | inactive
KIR2DS4 | 1 | 1.41 | 1.45 | 1.12 | 1.65 | inactive
LINC03066 | 1 | -1.1 | -0.87 | -1.5 | -0.91 | inactive
CACNA1E | 1 | -0.73 | -0.92 | -0.45 | -0.81 | inactive
IZUMO1 | 1 | 0.6 | 0.5 | 0.62 | 0.66 | inactive
DLG2 | 1 | 2.81 | 2.8 | 2.68 | 2.97 | active
DLG2 | 2 | -0.03 | -0.48 | 0.37 | 0.01 | inactive
SSH1 | 1 | 0.59 | 0.64 | 0.4 | 0.73 | inactive
PYDC2 | 1 | -0.47 | -0.76 | -0.8 | 0.14 | inactive
VSIG1 | 1 | -0.31 | -0.21 | -0.2 | -0.51 | inactive
MATN2 | 1 | -1.6 | -1.35 | -1.73 | -1.71 | inactive
SESN3 | 1 | -0.61 | -0.12 | -0.77 | -0.95 | inactive
KCNG3 | 1 | 0.59 | 0.75 | 0.47 | 0.55 | inactive
ADNP2 | 1 | -1.15 | -0.93 | -1.27 | -1.24 | inactive
TOLLIP | 1 | 1.03 | 1.36 | 0.95 | 0.77 | inactive
ZNF248 | 1 | 0.08 | -0.28 | -0.13 | 0.63 | inactive
TTL | 1 | 0.57 | 0.59 | 0.36 | 0.75 | inactive
OXSM | 1 | 1.24 | 1.37 | 1.31 | 1.02 | inactive
PCSK2 | 1 | 0.58 | 0.38 | 0.64 | 0.71 | inactive
SRY | 1 | 0.02 | 0.1 | 0.09 | -0.13 | inactive
HOXB3 | 1 | 0.17 | 0.37 | 0.01 | 0.14 | inactive
HPDL | 1 | -1.5 | -1.64 | -1.41 | -1.45 | inactive
SERPINH1 | 1 | -0.5 | -0.69 | -0.3 | -0.5 | inactive
ACTR1B | 1 | -0.16 | -0.22 | -0.37 | 0.1 | inactive
IL1RN | 1 | -0.07 | 0.13 | -0.01 | -0.34 | inactive
NCF4 | 1 | -0.2 | -0.02 | -0.36 | -0.23 | inactive
FNDC9 | 1 | 0.69 | 0.3 | 0.98 | 0.79 | inactive
GABRR3 | 1 | -0.36 | -0.52 | -0.41 | -0.16 | inactive
UCK2 | 1 | -0.7 | -1.1 | -0.7 | -0.3 | inactive
CEACAM1 | 1 | -1.09 | -0.91 | -1.59 | -0.76 | inactive
ZNF525 | 1 | -0.99 | -1.26 | -0.83 | -0.87 | inactive
ZIM2 | 1 | 0.47 | 0.16 | 0.41 | 0.82 | inactive
BACE2 | 1 | -0.37 | -0.55 | -0.35 | -0.2 | inactive
TDRD9 | 1 | -0.35 | -0.32 | -0.38 | -0.34 | inactive
